Reference: US20100129348A1, “METHOD FOR […] INHIBITING THE ACTIVITY OF ALPHA 1B SUBUNIT OF N-TYPE CALCIUM CHANNEL” (Korea Institute of Science and Technology, priority 2002, published 2010)

By UniProt entry, the sequences of proteins in these tests, tags left out. Residues count along the entry.
UniProt O55017, whole entry: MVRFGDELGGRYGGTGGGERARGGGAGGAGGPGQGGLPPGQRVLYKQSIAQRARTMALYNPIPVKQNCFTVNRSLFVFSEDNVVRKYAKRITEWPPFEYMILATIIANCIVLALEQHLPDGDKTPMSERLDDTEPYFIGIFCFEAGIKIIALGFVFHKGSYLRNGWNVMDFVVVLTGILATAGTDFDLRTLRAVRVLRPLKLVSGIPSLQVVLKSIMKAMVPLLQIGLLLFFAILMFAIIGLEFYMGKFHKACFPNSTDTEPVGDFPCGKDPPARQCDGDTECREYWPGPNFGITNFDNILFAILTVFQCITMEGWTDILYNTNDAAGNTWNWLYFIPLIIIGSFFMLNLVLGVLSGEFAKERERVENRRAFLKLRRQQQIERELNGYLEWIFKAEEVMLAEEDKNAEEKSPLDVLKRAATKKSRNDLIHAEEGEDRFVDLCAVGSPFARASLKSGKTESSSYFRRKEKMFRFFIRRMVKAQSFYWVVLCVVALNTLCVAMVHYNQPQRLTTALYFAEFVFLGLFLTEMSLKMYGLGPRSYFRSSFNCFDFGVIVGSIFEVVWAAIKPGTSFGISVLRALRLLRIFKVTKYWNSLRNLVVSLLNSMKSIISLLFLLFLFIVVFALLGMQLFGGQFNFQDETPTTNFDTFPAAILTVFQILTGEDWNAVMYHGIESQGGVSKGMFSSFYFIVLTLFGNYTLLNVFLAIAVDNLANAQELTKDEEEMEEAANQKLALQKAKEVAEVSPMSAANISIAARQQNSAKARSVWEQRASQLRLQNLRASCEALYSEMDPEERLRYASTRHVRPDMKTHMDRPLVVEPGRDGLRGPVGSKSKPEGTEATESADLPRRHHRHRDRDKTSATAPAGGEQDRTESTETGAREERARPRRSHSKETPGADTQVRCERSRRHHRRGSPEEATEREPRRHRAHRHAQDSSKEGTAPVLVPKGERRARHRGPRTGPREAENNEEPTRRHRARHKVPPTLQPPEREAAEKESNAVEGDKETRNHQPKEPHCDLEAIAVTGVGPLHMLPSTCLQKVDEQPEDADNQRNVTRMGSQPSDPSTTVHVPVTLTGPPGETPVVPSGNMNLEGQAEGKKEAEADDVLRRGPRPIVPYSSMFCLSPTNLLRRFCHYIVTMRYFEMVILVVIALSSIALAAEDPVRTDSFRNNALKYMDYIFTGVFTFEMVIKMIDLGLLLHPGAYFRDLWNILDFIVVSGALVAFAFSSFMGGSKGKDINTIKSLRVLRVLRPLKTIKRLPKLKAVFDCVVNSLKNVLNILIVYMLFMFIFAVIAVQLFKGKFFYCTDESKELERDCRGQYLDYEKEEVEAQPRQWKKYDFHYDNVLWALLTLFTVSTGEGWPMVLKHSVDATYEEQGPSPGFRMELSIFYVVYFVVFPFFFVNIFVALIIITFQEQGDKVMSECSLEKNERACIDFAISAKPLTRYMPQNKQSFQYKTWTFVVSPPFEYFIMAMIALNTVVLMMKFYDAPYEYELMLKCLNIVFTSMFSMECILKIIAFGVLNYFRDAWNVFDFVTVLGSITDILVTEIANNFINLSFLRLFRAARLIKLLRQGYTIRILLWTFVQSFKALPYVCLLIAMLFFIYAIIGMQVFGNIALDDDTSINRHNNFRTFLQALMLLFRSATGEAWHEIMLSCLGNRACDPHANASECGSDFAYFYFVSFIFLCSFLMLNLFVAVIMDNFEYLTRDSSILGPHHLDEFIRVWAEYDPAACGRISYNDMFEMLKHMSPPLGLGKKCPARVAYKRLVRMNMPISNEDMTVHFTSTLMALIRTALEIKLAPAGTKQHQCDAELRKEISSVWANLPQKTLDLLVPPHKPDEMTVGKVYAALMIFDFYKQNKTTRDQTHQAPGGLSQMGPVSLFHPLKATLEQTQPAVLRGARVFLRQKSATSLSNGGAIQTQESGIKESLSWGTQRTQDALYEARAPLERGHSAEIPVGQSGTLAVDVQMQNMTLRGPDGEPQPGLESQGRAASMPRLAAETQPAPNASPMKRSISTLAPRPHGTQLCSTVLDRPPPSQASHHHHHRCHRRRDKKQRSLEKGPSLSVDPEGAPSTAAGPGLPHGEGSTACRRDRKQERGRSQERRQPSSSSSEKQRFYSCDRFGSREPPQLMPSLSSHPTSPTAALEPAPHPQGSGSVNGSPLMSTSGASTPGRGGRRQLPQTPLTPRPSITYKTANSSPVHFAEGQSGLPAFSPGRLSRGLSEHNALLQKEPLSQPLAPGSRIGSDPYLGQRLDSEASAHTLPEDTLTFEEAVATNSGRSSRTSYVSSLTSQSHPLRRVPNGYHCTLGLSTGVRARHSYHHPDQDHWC
UniProt O08532, 25-956 partner limits assumed: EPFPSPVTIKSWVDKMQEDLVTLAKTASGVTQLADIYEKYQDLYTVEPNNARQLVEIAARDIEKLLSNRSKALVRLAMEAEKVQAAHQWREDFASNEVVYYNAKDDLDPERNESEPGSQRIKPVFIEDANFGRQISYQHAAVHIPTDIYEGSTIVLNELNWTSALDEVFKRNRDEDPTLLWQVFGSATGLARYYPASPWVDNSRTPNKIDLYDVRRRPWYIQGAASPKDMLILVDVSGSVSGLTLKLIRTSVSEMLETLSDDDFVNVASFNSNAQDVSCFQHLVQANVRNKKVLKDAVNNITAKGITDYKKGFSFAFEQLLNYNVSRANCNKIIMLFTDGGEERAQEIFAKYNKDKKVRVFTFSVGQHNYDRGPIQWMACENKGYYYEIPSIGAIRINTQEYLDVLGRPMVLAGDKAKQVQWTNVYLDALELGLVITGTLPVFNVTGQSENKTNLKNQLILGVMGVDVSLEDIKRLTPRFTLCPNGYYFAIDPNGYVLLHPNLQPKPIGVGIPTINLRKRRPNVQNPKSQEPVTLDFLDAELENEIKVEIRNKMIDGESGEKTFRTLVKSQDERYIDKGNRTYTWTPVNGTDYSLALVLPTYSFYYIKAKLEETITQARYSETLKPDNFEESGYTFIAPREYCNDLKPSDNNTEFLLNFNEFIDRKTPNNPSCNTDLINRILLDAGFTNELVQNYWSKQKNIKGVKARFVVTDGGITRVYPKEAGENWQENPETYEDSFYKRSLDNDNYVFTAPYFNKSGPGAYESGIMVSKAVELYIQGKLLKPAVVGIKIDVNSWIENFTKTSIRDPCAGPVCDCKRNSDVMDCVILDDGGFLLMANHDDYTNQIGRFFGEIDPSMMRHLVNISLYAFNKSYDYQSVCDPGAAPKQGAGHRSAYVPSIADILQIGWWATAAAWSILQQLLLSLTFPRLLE
UniProt O08532, 957-1103 partner limits assumed: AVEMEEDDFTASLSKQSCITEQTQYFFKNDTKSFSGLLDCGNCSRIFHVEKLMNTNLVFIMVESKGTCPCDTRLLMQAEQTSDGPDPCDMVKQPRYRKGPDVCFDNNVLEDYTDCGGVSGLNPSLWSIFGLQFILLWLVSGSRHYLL
UniProt P54285, whole entry partner: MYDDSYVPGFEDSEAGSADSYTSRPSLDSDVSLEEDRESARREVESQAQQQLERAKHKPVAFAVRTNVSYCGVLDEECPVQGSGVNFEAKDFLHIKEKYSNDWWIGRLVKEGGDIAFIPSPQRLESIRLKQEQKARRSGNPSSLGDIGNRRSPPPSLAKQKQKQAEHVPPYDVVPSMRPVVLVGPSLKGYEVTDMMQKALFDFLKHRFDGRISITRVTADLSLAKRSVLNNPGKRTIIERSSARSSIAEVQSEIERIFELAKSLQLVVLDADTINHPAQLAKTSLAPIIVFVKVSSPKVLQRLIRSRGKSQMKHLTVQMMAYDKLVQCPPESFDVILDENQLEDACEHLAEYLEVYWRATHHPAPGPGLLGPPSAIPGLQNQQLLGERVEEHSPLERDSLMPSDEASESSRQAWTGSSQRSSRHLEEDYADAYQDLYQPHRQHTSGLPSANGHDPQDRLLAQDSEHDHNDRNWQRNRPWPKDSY

Target: T1, alpha 1B subunit of N-type Ca2+ channel (Mus musculus, UniProt O55017)
T1 construct: F1 wild-type male mice were anesthetized with avertin; from tissue; host or cells: dorsal raphe nucleus of living F1 (C57BL/6J x 129S4/SvJae) wild-type male mice
Parameters: species or system mice
Conditions: in vivo

Substance: ω-conotoxin GVIA
- immobility in the forced swimming test: significantly reduced immobility
